The text below walks through data of patent publication US20230212266A1 (FRED HUTCHINSON CANCER CENTER, published 2023).

The assay concerns the target SARS-CoV-2 receptor binding domain (RBD) (SARS-CoV-2). As to the kind of experiment: BLI: mAb on anti-human Fc probe, dipped in the antigen. Background: BLI is a label-free optical method that tracks binding on a fibre tip over time.

B1: CV2-55 (antibody, V domains shown)
VH: QVQLVESGGGVVQPGRSLRLSCAASGFTFSSYAMHWVRQAPGKGLEWVAVISYDGSNKYYADSVKGRFTISRDNSKNTLYLQMNSLRAEDTAVYYCARALTGNYYYGMDVWGQGTTVTVSS
VL: [skipping about 100 residues]
For B1, the binding result is “no binding”.
